Anti-infective test results gathered from many reports (values: NIAID ChemDB through PubChem).

Common to all: whole-cell or culture tests; agent: Candida tropicalis; method: broth dilution; read-out: MIC

Neighbouring rows are from separate reports. Blank or dashed fields: not listed here.

structure	conditions	strain or isolate	result
CCC(C)CC(C)CCCCCCCCC(=O)N[C@H]1C[C@@H](O)[C@H](NCCN)NC(=O)[C@@H]2[C@@H](O)CCN2C(=O)[C@H]([C@H](O)CCN)NC(=O)[C@H]([C@H](O)[C@@H](O)c2ccc(O)cc2)NC(=O)[C@@H]2C[C@@H](O)CN2C(=O)[C@H]([C@@H](C)O)NC1=O		8684	4 µg/mL
COc1ccc(-c2cc(=O)c3c(O)c([C@@H]4O[C@H](CO)[C@@H](O)[C@H](O)[C@H]4O)c(O)cc3o2)cc1O		ATCC 750	>500 µg/mL
CCN(CC)c1ccc(/C=N/NC(=O)c2ccc(CNc3nc4ccccc4[nH]3)cc2)cc1			50 µg/mL
Nc1[nH]c(=O)ncc1F			3.2 µg/mL
O=C(N/N=C/c1ccc(O)cc1)c1ccc(CNc2nc3ccccc3[nH]2)cc1			50 µg/mL
CCCCCCCCCCCCCCCCn1cc[n+](C)c1		17A	0.014 µg/mL
CCCCCCCCCCCC[n+]1cccc2ccccc21	24 h	156	0.01562 µg/mL
CCCC[C@@H](C)/C=C(C)/C=C(\C)C(=O)N/C(=C/[C@@](C)(O)/C=C/C=C/C=C/C(=O)NC1=C(O)CCC1=O)C(=O)[C@@H]1CO1		1	13 µM
Cc1ccc(C(O)c2cccc(C(O)CCn3ccnc3)c2)cc1		RTCC 1065	>64 µg/mL
O=C(N/N=C/c1ccc([N+](=O)[O-])cc1)c1ccc(CNc2nc3ccccc3[nH]2)cc1			25 µg/mL
Nc1scc2c1c(=O)oc1ccc3ccccc3c12		ATCC 750	32 µg/mL
O=C(CCn1ccnc1)c1cccc(C(O)c2ccc(Cl)c(Cl)c2)c1		RTCC 1065	64 µg/mL
COC(=O)c1c(N)oc2c(C)c(C)c(O)c(Sc3cccc(C)c3)c12		KCCM 50662	25 µg/mL
Cc1nn2c(-c3ccncc3)nnc2s/c1=N/Nc1ccc(S(N)(=O)=O)cc1		ATCC 66029	>100 µg/mL
O=C(N/N=C/c1ccc(C(F)(F)F)cc1)c1ccc(CNc2nc3ccccc3[nH]2)cc1			25 µg/mL
O=C(O[C@@H]1COC(=O)c2cc(O)c(O)c(O)c2-c2c(cc(O)c(O)c2O)C(=O)OC1C1OC(=O)c2cc(O)c(O)c(O)c2-c2c(O)c(O)c(O)c3c2C(=O)OC1[C@H]3O)c1cc(O)c(O)c(O)c1		ATCC 750	145 µg/mL
CCCCCCCCCCCCCCCC(=O)NC(CCCCN)C(=O)NC(CCCCN)C(N)=O		750	0.5 µg/mL
CC1CC2=C(O1)c1ccccc1C(=O)C2=O		Clinical isolate	32 µg/mL
O=C(CCn1ccnc1)c1ccc2ccccc2c1		RTCC 1095	8 µg/mL
COC(=O)c1c(N)oc2ccc(O)cc12		KCCM 50662	25 µg/mL
C[C@H]1[C@H](O)[C@@H](C)/C=C/C=C/C=C/C=C/C=C/C=C/C=C/[C@H](O[C@@H]2O[C@H](C)[C@@H](O)[C@H](N)[C@@H]2O)C[C@@H]2O[C@](O)(C[C@@H](O)C[C@@H](O)CC[C@H](O)[C@@H](O)C[C@@H](O)CC(=O)O[C@H]1C)C[C@H](O)[C@H]2C(=O)O		ATCC 760	0.5 µg/mL
O=C(CCn1ccnc1)c1ccc(-c2ccccc2)cc1		RTCC 1095	>64 µg/mL
CCCCCCCC/C=C\CCCCCCCC(=O)NCCCN		ATCC 750	128 µg/mL
Cc1nn2c(-c3ccncc3)nnc2sc1=NNc1ccc(Br)cc1		ATCC 66029	25 µg/mL
COc1ccc(/C=N/NC(=O)c2ccc(CNc3nc4ccccc4[nH]3)cc2)cc1			50 µg/mL
C[C@H]1[C@H](O)[C@@H](C)/C=C/C=C/C=C/C=C/C=C/C=C/C=C/[C@H](O[C@@H]2O[C@H](C)[C@@H](O)[C@H](N)[C@@H]2O)C[C@@H]2O[C@](O)(C[C@@H](O)C[C@@H](O)CC[C@H](O)[C@@H](O)C[C@@H](O)CC(=O)O[C@H]1C)C[C@H](O)[C@H]2C(=O)O		90874	0.06 µg/mL
OC(CCn1ccnc1)c1cccc(C(O)c2ccc(Cl)c(Cl)c2)c1		RTCC 1095	>64 µg/mL
CN(C)c1ccc(/C=N/NC(=O)c2ccc(CNc3nc4ccccc4[nH]3)cc2)cc1			50 µg/mL
CCOc1ccc2nc3cc(N=C4NC(=O)/C(=C\c5ccc([N+](=O)[O-])cc5)S4)ccc3c(N)c2c1		ATCC 8302	500 µg/mL
CC(C)(O)c1cn(-c2ccc(Cl)cc2)nn1		URM 4790	128 µg/mL
COc1ccc(N/N=c2/sc3nnc(-c4ccncc4)n3nc2C)cc1		ATCC 66029	12.5 µg/mL
CCOc1ccc(/C=N/NC(=O)c2ccc(CNc3nc4ccccc4[nH]3)cc2)cc1			50 µg/mL

Again, the opening 4 rows:

structure	conditions	strain or isolate	result
CCC(C)CC(C)CCCCCCCCC(=O)N[C@H]1C[C@@H](O)[C@H](NCCN)NC(=O)[C@@H]2[C@@H](O)CCN2C(=O)[C@H]([C@H](O)CCN)NC(=O)[C@H]([C@H](O)[C@@H](O)c2ccc(O)cc2)NC(=O)[C@@H]2C[C@@H](O)CN2C(=O)[C@H]([C@@H](C)O)NC1=O		8684	4 µg/mL
COc1ccc(-c2cc(=O)c3c(O)c([C@@H]4O[C@H](CO)[C@@H](O)[C@H](O)[C@H]4O)c(O)cc3o2)cc1O		ATCC 750	>500 µg/mL
CCN(CC)c1ccc(/C=N/NC(=O)c2ccc(CNc3nc4ccccc4[nH]3)cc2)cc1			50 µg/mL
Nc1[nH]c(=O)ncc1F			3.2 µg/mL